Test results taken from patent US5053215A, “NMR-assayable ligand-labelled trifluorothymidine containing composition and method for diagnosis of HSV infection” (priority 1988, dated 1991).

Tested on: livers of mice infected with HSV-2
Test: TFT (19F) concentration in mouse livers by 19F NMR spectroscopy after i.v. injection
Assay type: in vivo, CBA/J mice; HSV-2 (333 strain)
Settings: 1:6 dilution, 10 min acquisition time, 7.05 T

## O=c1[nH]c(=O)n([C@H]2C[C@H](O)[C@@H](CO)O2)cc1C(F)(F)F [TFT, trifluorothymidine]
  TFT tissue levels readily detected by 19F NMR: 50-100 μg/g tissue
